Data as given in PubChem BioAssay AID504761 (Drosophila RNAi Screening Center, 2011)
Assay: 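Insect host genes that dengue virus relies on to spread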 (primary screen). Cells: D.Mel-2 cells from Drosophila. Reagent: long dsRNA against Drosophila genes. Treatment: infection with dengue virus type 2; dose and infection time not stated. Detection: 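Cells stained for dengue envelope protein and imaged; percent of infected cells per well on duplicate plates, ranked by infection, with stained nuclei counted for cell number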. Reading the numbers: infection score: higher = more virus-infected cells; cell count: higher = more cells in the well. Rule for the call: 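Low infection ranks in the two replicates (chance level up to 0.065) followed by a retest with a 1.5-fold or larger significant decrease, p below 0.05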. Meaning of the calls: active = confirmed: knock-down lowers infection; inactive = not picked or not confirmed.
The screen tested about 22,000 reagents; below is a random part of those with a known target gene and a result. Over the whole deposit, 116 (0.52%) got an active call. 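Calls depend on retest data that are not deposited; infection was ranked per plate without normalising between plates; the unit of the infection score is not given.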 The raw values are shown without normalisation. The numbers tell different reagents against one gene apart. A plus sign joins genes that one reagent is predicted to hit. Further read-outs or replicates are left out here. Not given: the amount of reagent, the time to read-out.

infection score, replicate 1 | infection score, replicate 2 | cell count, replicate 1 | activity call | target | reagent no.
1 | 0.44 | 6312 | inactive | CG31523 (GeneID 326148) | 1
1.01 | 2.46 | 6406 | inactive | CG31523 (GeneID 326148) | 2
9.51 | 8.32 | 5827 | inactive | CG31523 (GeneID 326148) | 3
1.85 | 4.26 | 6116 | inactive | CG31465 (GeneID 42577) | 1
8.2 | 5.79 | 5232 | inactive | CG31465 (GeneID 42577) | 2
1.58 | 3.8 | 6583 | inactive | Pex6 + Hao | 1
3.35 | 10.6 | 6839 | inactive | Pex6 + Hao | 2
15.8 | 2.95 | 6610 | inactive | Or22c (GeneID 33381) | 1
20.6 | 7.98 | 5838 | inactive | Or22c (GeneID 33381) | 2
9.69 | 1.86 | 6512 | inactive | Syx17 (GeneID 38541) | 1
1.07 | 13.4 | 6926 | inactive | CG12502 (GeneID 38102) | 1
3.26 | 2.53 | 5676 | inactive | CG6978 (GeneID 31413) | 1
6.97 | 5.74 | 6671 | inactive | CG10725 (GeneID 39510) | 1
17.7 | 15.2 | 5898 | inactive | CG10097 + CG10096 | 1
20 | 23.2 | 5481 | inactive | CG10097 + CG10096 | 2
4.08 | 3.48 | 6425 | inactive | RpL29 (GeneID 37430) | 1
15.9 | 1.97 | 4515 | inactive | CG32751 (GeneID 318189) | 1
21.8 | – | 6590 | inactive | BaraB (GeneID 35894) | 1
1.58 | 2.88 | 6285 | inactive | Roc1b + Cdc5 | 1
1.52 | 5.28 | 6443 | inactive | Roc1b + Cdc5 | 2
10.6 | 9.28 | 4674 | inactive | Hrb98DE (GeneID 43385) | 1
0.94 | 1.83 | 4806 | inactive | Hrb98DE (GeneID 43385) | 2
8.37 | 17.7 | 1817 | inactive | CG9759 (GeneID 41661) | 1
16 | 6.58 | 5895 | inactive | CG9759 (GeneID 41661) | 2
1.48 | 5.34 | 271 | inactive | lgs (GeneID 43791) | 1
5.05 | 2.84 | 6279 | inactive | Nckx30C (GeneID 45248) | 1
5.06 | 10.3 | 6146 | inactive | Nckx30C (GeneID 45248) | 2
4.62 | 2.11 | 6231 | inactive | Nckx30C (GeneID 45248) | 3
12.9 | 18.8 | 4892 | inactive | Nckx30C (GeneID 45248) | 4
3.1 | 14.8 | 6411 | inactive | CG10462 (GeneID 35260) | 1

A stretch taken from the entries so far:
infection score, replicate 1 | infection score, replicate 2 | cell count, replicate 1 | activity call | target | reagent no.
20.6 | 7.98 | 5838 | inactive | Or22c (GeneID 33381) | 2
9.69 | 1.86 | 6512 | inactive | Syx17 (GeneID 38541) | 1
1.07 | 13.4 | 6926 | inactive | CG12502 (GeneID 38102) | 1
3.26 | 2.53 | 5676 | inactive | CG6978 (GeneID 31413) | 1
6.97 | 5.74 | 6671 | inactive | CG10725 (GeneID 39510) | 1

More records:
infection score, replicate 1 | infection score, replicate 2 | cell count, replicate 1 | activity call | target | reagent no.
3.75 | 4.65 | 6480 | inactive | CG3091 (GeneID 31210) | 1
0.86 | 19.8 | 5597 | inactive | CG5509 (GeneID 41539) | 1
5 | 3.08 | 6642 | inactive | CG4630 (GeneID 36458) | 1
4.8 | 10.4 | 6516 | inactive | CG4630 (GeneID 36458) | 2
1.51 | 1.11 | 6283 | inactive | Orc5 (GeneID 34794) | 1
34.2 | 9.34 | 4233 | inactive | Orc5 (GeneID 34794) | 2
7.11 | 9.21 | 5866 | inactive | CG6465 (GeneID 41274) | 1
8.27 | 23.4 | 3592 | inactive | CG6465 (GeneID 41274) | 2
6.52 | 3.75 | 5812 | inactive | RpL3 + CG6693 | 1
3.88 | 0.5 | 6037 | inactive | Spn (GeneID 46194) | 1
7.39 | 4.86 | 6371 | inactive | Spn (GeneID 46194) | 2
6.47 | 25.4 | 6585 | inactive | Spn (GeneID 46194) | 3
2.25 | 7.42 | 6387 | inactive | Kpc2 (GeneID 37261) | 1
– | 5.47 | 596 | inactive | EMC5 (GeneID 35159) | 1
5.8 | 12.8 | 1913 | inactive | inaE (GeneID 32343) | 1
11.7 | 14.7 | 6854 | inactive | inaE (GeneID 32343) | 2
0.54 | 13.2 | 6905 | inactive | inaE (GeneID 32343) | 3
12 | 7.84 | 6731 | inactive | inaE (GeneID 32343) | 4
0.58 | 9.56 | 6390 | inactive | Ccdc85 (GeneID 33509) | 1
3.71 | 5.44 | 6245 | inactive | Aprt (GeneID 48224) | 1
6.26 | 4.94 | 6386 | inactive | Trpml + CG42638 | 1
2.44 | 2.16 | 6553 | active | phyl (GeneID 36606) | 1
4.71 | 9.98 | 5732 | inactive | phyl (GeneID 36606) | 2
2.35 | 3.72 | 6213 | inactive | qm (GeneID 38816) | 1
2.11 | 5.43 | 5651 | inactive | qm (GeneID 38816) | 2
1.33 | 5.69 | 6688 | inactive | kumpel (GeneID 43136) | 1
6.77 | 3.09 | 6764 | inactive | kumpel (GeneID 43136) | 2
3.86 | 9.31 | 6994 | inactive | kumpel (GeneID 43136) | 3
9.01 | 5.42 | 6412 | inactive | kumpel (GeneID 43136) | 4
4.78 | 8.33 | 6755 | inactive | kumpel (GeneID 43136) | 5
9.68 | 2.07 | 6611 | inactive | kumpel (GeneID 43136) | 6
6.24 | 2.37 | 6587 | inactive | kumpel (GeneID 43136) | 7
17.8 | 13.3 | 5764 | inactive | kumpel (GeneID 43136) | 8
16.1 | 19.2 | 4426 | inactive | Gpdh2 (GeneID 37672) | 1
16.1 | 6.95 | 5971 | inactive | Elal (GeneID 42970) | 1
6.28 | 9.81 | 3422 | inactive | Mi-2 (GeneID 40170) | 1
8.86 | 4.17 | 4641 | inactive | Mi-2 (GeneID 40170) | 2
3.39 | 4.36 | 6343 | inactive | rau (GeneID 33814) | 1
3.19 | 5.68 | 6450 | inactive | rau (GeneID 33814) | 2
15 | 8.83 | 6451 | inactive | GstD5 (GeneID 48338) | 1
2.3 | 0.93 | 6738 | inactive | GstD5 (GeneID 48338) | 2
4.67 | 5.7 | 6533 | inactive | hb (GeneID 41032) | 1
15.2 | 13.5 | 5797 | inactive | hb (GeneID 41032) | 2
17.7 | 20.1 | 2975 | inactive | scra (GeneID 35696) | 1
